# Test results from patent publication US8088729B2 (priority 2005, dated 2012).
# What was measured:
# [1] = test system: influenza A (H5N1) hybrid virus; test: H5N1 neutral red (NR) dye uptake assay, MDCK cells
# [2] = test system: influenza A (H5N1) hybrid virus; test: H5N1 CPE inhibition test, visual (microscopic), MDCK cells; settings: Visual (CPE) Assay, 72 h
smiles,measurement,setting,value
"NC(=O)c1ncn([C@@H]2O[C@H](CO)[C@@H](O)[C@H]2O)n1 [Ribavirin, reference compound]",EC50,[1],1.8 µg/mL
same,EC50,[2],1.8 µg/mL
